Experimental data reported in US6110962A, “11-aryl-benzo[B]naphtho[2,3-D]furans and 11-aryl-benzo[B]naphtho[2,3-D]thiophenes useful in the treatment of insulin resistance and hyperglycemia” (American Home Products Corporation, priority 1999, dated 2000).

System: rat hepatic microsomal PTPases
Assay: Inhibition of tri-phosphorylated insulin receptor dodecaphosphopeptide dephosphorylation by rat hepatic PTPases
Settings: PTPase activity, compound at 50 μM

## O=[As]c1ccccc1 (stereo not shown)
  % Change from Control: -57.06%
